Results of unrelated studies side by side (data: NIAID ChemDB).

Common to all: whole-cell or culture tests; organism: Herpes simplex virus 2; cell line: E6SM; read-out: EC50

Rows are shuffled and stem from different studies.

| compound | strain or isolate | method | value |
|---|---|---|---|
| CCC(Sc1ncnc2c1cnn2COCCO)C(N)=O | G | cytopathic effect | >400 µg/mL |
| Cc1cc([C@@H]2C[C@H](O)[C@@H](CO)O2)c(F)cc1Cl | LYONS | cytopathic effect | >400 µg/mL |
| OC[C@H]1O[C@@H](c2cc(/C=C/Br)c(F)cc2F)C[C@@H]1O | 196 | cytopathic effect | >400 µg/mL |
| OC[C@H]1O[C@@H](c2ccc(F)cc2F)C[C@@H]1O | 196 | cytopathic effect | >400 µg/mL |
| Cc1cn(CC[C@H](O)CCO)c(=O)[nH]c1=O | G | cytopathic effect | >400 µg/mL |
| OC[C@H]1O[C@@H](c2cc(C#CI)c(F)cc2F)C[C@@H]1O | LYONS | cytopathic effect | >400 µg/mL |
| OC[C@H]1O[C@@H](c2cc(I)c(F)cc2F)C[C@@H]1O | LYONS | cytopathic effect | >400 µg/mL |
| NC(=O)CSc1ncnc2c1cnn2COCC(O)CO | G | cytopathic effect | >400 µg/mL |
| CC(=O)OCCOCN1C(=N)/C(=C(\C)O)C(N)=NS1(=O)=O | G |  | >400 µg/mL |
| CO[C@H](CO)[C@@H](O)CCn1cnc2c(N)ncnc21 | LYONS | cytopathic effect | >400 µg/mL |
| Cc1cc([C@@H]2C[C@H](O)[C@@H](CO)O2)c(F)cc1F | G | cytopathic effect | >400 µg/mL |
| CC(=O)OCCOCN1C=CC(=O)N(COCCO)S1(=O)=O | G |  | >400 µg/mL |
| OC[C@H]1O[C@H](c2cc(F)c(F)cc2F)C[C@@H]1O | LYONS | cytopathic effect | >400 µg/mL |
| Nc1ncnc2c1ncn2CC[C@H](O)CCO | G | cytopathic effect | >400 µg/mL |
| OC[C@H]1O[C@@H](c2cc(/C=C/I)c(F)cc2F)C[C@@H]1O | G | cytopathic effect | >400 µg/mL |
| CC(=O)OCCOCN1C(=O)C=CN(COCCO)S1(=O)=O | G |  | >400 µg/mL |
| CO[C@H](CO)[C@@H](O)CCn1ccc(N)nc1=O | LYONS | cytopathic effect | >400 µg/mL |
| OC[C@H]1O[C@H](c2cc(Br)c(F)cc2F)C[C@@H]1O | 196 | cytopathic effect | >400 µg/mL |
| CC(Sc1ncnc2c1cnn2COCCO)C(N)=O | G | cytopathic effect | >400 µg/mL |
| OC[C@H]1O[C@@H](c2cc(Br)c(F)cc2F)C[C@@H]1O | G | cytopathic effect | >400 µg/mL |
| C/C(O)=C1\C(=N)N(COCCO)S(=O)(=O)N=C1N | G |  | >400 µg/mL |

Repeating the first 2 entries:

compound	strain or isolate	method	value
CCC(Sc1ncnc2c1cnn2COCCO)C(N)=O	G	cytopathic effect	>400 µg/mL
Cc1cc([C@@H]2C[C@H](O)[C@@H](CO)O2)c(F)cc1Cl	LYONS	cytopathic effect	>400 µg/mL

An empty or dashed field is not shown. ECn is the concentration giving n% inhibition of infection, replication or growth.